Measured values from several laboratories, pooled; numbers as filed in NIAID ChemDB.

Shared fields: whole-cell or culture tests; organism: Hepatitis C virus; read-out: EC50

Two numbers with a dash give a range or band. Neighbouring rows are from separate reports. ECn: concentration that inhibits the pathogen or its effect by n%.

CS(=O)(=O)NC(=O)c1c(-c2ccc[nH]c2=O)c2c3c(ccc2n1Cc1ccccc1F)CCCO3 ; read by: replicon ; result: <1 µM
CC1(C)CC(=O)C2=C(C1)Nc1c(O)cccc1N(C(=O)c1ccc3c(c1)OCO3)C2c1ccc(OCc2ccccc2)cc1F ; strain: 1b ; read by: luciferase / reporter gene / replicon ; result: 1.98 µM
NC(=O)COc1ccc2c(c1)S(=O)(=O)N=C(c1c(O)c3cc(F)ccc3n(CCC3CC3)c1=O)N2 ; strain: 1b 33778 ; read by: replicon ; result: 0.062 µM
Cc1cc(C(=O)N2c3cccc(O)c3NC3=C(C(=O)CC(C)(C)C3)C2c2ccc(OCc3ccccc3)cc2F)nn1C ; strain: 1b ; read by: luciferase / reporter gene / replicon ; result: 1.04 µM
O=c1[nH]cccc1-c1c(C2=NS(=O)(=O)c3ccccc3N2)n(Cc2ccccc2F)c2cc(F)c3ccoc3c12 ; read by: replicon ; result: <0.5 µM
CC1CCC(C(=O)N(c2cc(-c3ccc(NC(=O)c4ncc[nH]4)cc3)sc2C(=O)O)C(C)C)CC1 ; strain: 1a ; read by: replicon ; result: <0.5 µM
Cc1cccc(Cc2nc(-c3cn(CC4CCCCC4)c4cc(N5CCN(C)CC5)c(F)cc4c3=O)no2)c1 ; strain: 1b ; read by: replicon ; result: <10 µM
CCNc1nc(NCc2ccc(S(N)(=O)=O)cc2)nc2ccc(-c3ccc(F)cc3)nc12 ; read by: replicon ; result: <0.1 µM
CN1CCN(c2cc3c(cc2F)c(=O)c(-c2noc(C(CCCC(=O)O)c4ccccc4)n2)cn3Cc2ccc(Cl)cc2)CC1 ; strain: 1b ; read by: replicon ; result: <10 µM
CC(C)C(=O)N1c2cccc(O)c2NC2=C(C(=O)CC(C)(C)C2)[C@@H]1c1ccc(OCc2ccccc2)cc1F ; strain: 1b ; read by: luciferase / reporter gene / replicon ; result: 0.68 µM
NS(=O)(=O)c1ccc(CNc2nc(NCC(F)(F)F)c3nc(-c4cnc(N5CCCC5)cn4)ccc3n2)cc1 ; read by: replicon ; result: <0.1 µM
CC1(C)CC(=O)C2=C(C1)Nc1c(O)cccc1N(C(=O)CC#N)C2c1ccc(OCc2ccccc2)cc1Cl ; strain: 1b ; read by: luciferase / reporter gene / replicon ; result: 1.21 µM
Nc1cc(Cn2c(C(=O)O)c(-c3ccc[nH]c3=O)c3c4occc4c(F)cc32)ccn1 ; read by: replicon ; result: <0.5 µM
CC(C)N1CCC(Nc2nc(NCc3ccc(F)cc3)nc3ccc(-c4ccc(F)cc4)nc23)CC1 ; read by: replicon ; result: <0.1 µM
CN1CCN(c2cc3c(cc2F)c(=O)c(-c2noc(Cc4ccccc4)n2)cn3CC2CCCCC2)CC1 ; strain: 1b ; read by: replicon ; result: <2 µM
NC(=O)Nc1ccc(-c2ccc3nc(NCc4ccc(S(N)(=O)=O)cc4)nc(C4CC4)c3n2)cc1 ; read by: replicon ; result: <0.1 µM
Cc1nc(C(=O)Nc2ccc(-c3cc(N(C(=O)C4CCC(C)CC4)C(C)C)c(C(=O)O)s3)cc2)cs1 ; strain: 1b ; read by: replicon ; result: <0.5 µM
Cc1nc(C(=O)N2c3cccc(O)c3NC3=C(C(=O)CC(C)(C)C3)[C@@H]2c2ccc(OCc3ccccc3)cc2F)cs1 ; strain: 1b ; read by: luciferase / reporter gene / replicon ; result: 0.35 µM
O=c1c(-c2noc(Cc3ccccc3)n2)cn(Cc2ccc(Cl)cc2)c2cc(N3CCC(O)CC3)c(F)cc12 ; strain: 1b ; read by: replicon ; result: <2 µM
Cc1cnc(C(=O)N2c3cccc(O)c3NC3=C(C(=O)CC(C)(C)C3)[C@@H]2c2ccc(OCc3ccccc3)cc2F)cn1 ; strain: 1b ; read by: luciferase / reporter gene / replicon ; result: 0.47 µM
O=C(O)c1c(-c2ccc[nH]c2=O)c2c3c(ccc2n1Cc1cc(F)ccc1F)CCCO3 ; read by: replicon ; result: <1 µM
CN1CCN(c2cc3c(cc2F)c(=O)c(-c2noc(C(C)(C)c4ccccc4)n2)cn3C2(c3ccc(C(F)(F)F)cc3)CC2)CC1 ; strain: 1b ; read by: replicon ; result: >10 µM
Cc1cc(C(=O)Nc2ccc(-c3cc(N(C(=O)C4CCC(C)CC4)C(C)C)c(C(=O)O)s3)cc2)n(C)n1 ; strain: 1a ; read by: replicon ; result: >0.5 µM
CC1(C)CC(=O)C2=C(C1)Nc1c(O)cccc1N(C(=O)c1ccc(C(N)=O)cn1)C2c1ccc(OCc2ccccc2)cc1F ; strain: 1b ; read by: luciferase / reporter gene / replicon ; result: 5.76 µM
O=C(O)c1c(-c2ccc[nH]c2=O)c2c3sccc3ccc2n1Cc1ccccc1F ; read by: replicon ; result: 0.5–1.5 µM
COc1ccc2c(c1)c(=O)c(-c1noc(Cc3ccccc3)n1)cn2CC1CCCCC1 ; strain: 1b ; read by: replicon ; result: >10 µM
CCn1cncc1C(=O)Nc1ccc(-c2cc(N(C(=O)C3CCC(C)CC3)C(C)C)c(C(=O)O)s2)cc1 ; strain: 1a ; read by: replicon ; result: >0.5 µM
CC(C)Nc1nc(NCC(F)F)nc2ccc(-c3ccc(F)cc3)nc12 ; read by: replicon ; result: 0.25–2 µM
CC1(C)CC(=O)C2=C(C1)Nc1c(O)cccc1N(C(=O)CC#N)[C@@H]2c1ccc(OCc2ccccc2)cc1Cl ; strain: 1b ; read by: luciferase / reporter gene / replicon ; result: 4.15 µM
O=C(O)c1c(-c2ccc[nH]c2=O)c2c3occc3c(F)cc2n1Cc1cc(F)ccc1F ; read by: replicon ; result: <0.5 µM
CC1CCC(C(=O)N(c2cc(-c3ccc(NC(=O)c4nccn4C)cc3)sc2C(=O)O)C(C)C)CC1 ; strain: 1b ; read by: replicon ; result: <0.5 µM